# In the supplement of paper PMC3578754:
# Key:
# Assay in all cases: fold change of IC50 against reference virus; higher = more resistant; Cell-culture drug susceptibility tests of virus bearing the protease of each isolate, gathered from many studies.
# atazanavir = compound: COC(=O)N[C@H](C(=O)N[C@@H](Cc1ccccc1)[C@@H](O)CN(Cc1ccc(-c2ccccn2)cc1)NC(=O)[C@@H](NC(=O)OC)C(C)(C)C)C(C)(C)C [atazanavir]
# ritonavir = compound: CC(C)c1nc(CN(C)C(=O)N[C@H](C(=O)N[C@@H](Cc2ccccc2)C[C@H](O)[C@H](Cc2ccccc2)NC(=O)OCc2cncs2)C(C)C)cs1 [ritonavir]
# saquinavir = compound: CC(C)(C)NC(=O)[C@@H]1C[C@@H]2CCCC[C@@H]2CN1C[C@@H](O)[C@H](Cc1ccccc1)NC(=O)[C@H](CC(N)=O)NC(=O)c1ccc2ccccc2n1 [saquinavir]
# nelfinavir = compound: Cc1c(O)cccc1C(=O)N[C@@H](CSc1ccccc1)[C@H](O)CN1C[C@H]2CCCC[C@H]2C[C@H]1C(=O)NC(C)(C)C [nelfinavir]
# lopinavir = compound: Cc1cccc(C)c1OCC(=O)N[C@@H](Cc1ccccc1)[C@@H](O)C[C@H](Cc1ccccc1)NC(=O)[C@H](C(C)C)N1CCCNC1=O [lopinavir]
# indinavir = compound: CC(C)(C)NC(=O)[C@@H]1CN(Cc2cccnc2)CCN1C[C@@H](O)C[C@@H](Cc1ccccc1)C(=O)N[C@H]1c2ccccc2C[C@H]1O [indinavir]
# tipranavir = compound: CCC[C@@]1(CCc2ccccc2)CC(O)=C([C@H](CC)c2cccc(NS(=O)(=O)c3ccc(C(F)(F)F)cn3)c2)C(=O)O1 [tipranavir]
Test System,fold change of IC50 against reference virus (atazanavir),fold change of IC50 against reference virus (ritonavir),fold change of IC50 against reference virus (saquinavir),fold change of IC50 against reference virus (nelfinavir),fold change of IC50 against reference virus (lopinavir),fold change of IC50 against reference virus (indinavir),fold change of IC50 against reference virus (tipranavir)
"HIV-1 isolate 426 (protease changes: L10V I13V K20T L33F M46I Q58E I62V L63P V77I N88G, study 64)",0.9,0.9,0.4,2.9,2.7,2.1,1.2
"HIV-1 isolate 508 (protease changes: I13V K14R E35D M36I R41K R57K H69K L89M, study 18)",1.3,1.9,1.4,1.3,0.7,1.1,2.2
"HIV-1 isolate 1082 (protease changes: R57K L63Q, study 64)",0.7,0.7,0.4,0.5,0.6,0.5,0.4
"HIV-1 isolate 1460 (protease changes: L10V I13V I15V G16A K20R V32I L33F M36I K43T M46I I47V I54M L63P A71V V82T L90M, study 64)",70,≥ 800,15,10,287,57,≥ 800
"HIV-1 isolate 1161 (protease changes: I13V P39Q I62V L63P V77I, study 64)",0.6,0.5,0.5,1,0.5,0.6,0.8
"HIV-1 isolate 38 (protease changes: I13V K20T E35N M36I N37E I62V L63P K70R A71I T74S L90M I93L, study 64)",16,17,11,63,3.6,7,3.2
"HIV-1 isolate 5 (protease changes: L33F K43T L63C H69Q V77I, study 64)",2.7,4.2,1.9,2.7,2.8,2.8,3.5
"HIV-1 isolate 814 (protease changes: I13V M36I R41K Q61K, study 15)",0.9,1.1,1,1.3,0.7,0.9,1.3
"HIV-1 isolate 1186 (protease changes: T12N K14R I15V G16E K20M M36I P39Q L63S I64V K70R, study 64)",1.1,1.4,1.4,1.3,1.3,1.2,1.1
"HIV-1 isolate 1394 (protease changes: T4P L10V I13V L19I L33F E35D M36I N37C M46I L63P A71T I84V N88D Q92R I93L, study 64)",14,48,11,13,14,5.6,11
"HIV-1 isolate 578 (protease changes: L10I V11I T12K I13V K20V V32I L33F E35G M36I N37D M46I I47V I54M R57K Q58E L63P I64V I66V A71V G73S I84V L89V L90M, study 64)",101,≥ 800,36,47,≥ 500,24,≥ 800
"HIV-1 isolate 670 (protease changes: T12I G16E P39S L63T V77I, study 64)",0.7,0.5,0.6,0.6,0.5,0.6,0.7
"HIV-1 isolate 724 (protease changes: L10F I13V V32I L33F M36I K45I I54V R57G A71V V82L I84V, study 76)",134,164,3,22,59,90,69
"HIV-1 isolate 1497 (protease changes: I15V M36I I64V V82L, study 64)",1.2,3.3,0.7,0.8,0.6,0.6,1.4
"HIV-1 isolate 1354 (protease changes: L10R V32I N37H R41K M46I I47V I50L L63P A71I I72V V77I V82T L90M I93L, study 64)",161,12,1.3,8.3,8,13,4.5
"HIV-1 isolate 490 (protease changes: L10I V11I T12P I13V K14R L19V L33F M46L G48M I54M L63T A71V I72T T74A P79S V82A I84V I93L, study 64)",18,47,64,8,38,7.7,3.1
"HIV-1 isolate 388 (protease changes: L10F I13V L23I L33F I54V R57K Q58E D60E L63P A71V L76V V82A I93L, study 15)",5.6,500,6.4,23,≥ 500,42,2.1
"HIV-1 isolate 1003 (protease changes: L10F I13V K20I L24I M36I M46I I54V D60E L63P I64V I66V A71T I72T G73C I84V T91S, study 64)",85,171,45,70,114,49,1.3
"HIV-1 isolate 856 (protease changes: I13V I64V, study 64)",0.6,0.5,0.5,1.2,0.7,0.6,0.5

# Fold change is the IC50 on the isolate divided by the IC50 on a reference virus; 1 = unchanged, higher = more resistant. Changes are given against the subtype B consensus. No active / inactive call. The values were gathered from many studies (numbered anew) with different assays, which the source does not name. Most viruses are clinical isolates; some are laboratory strains or clones with known resistance changes. Isolates with mixed residues are left out; stretches that were not sequenced show no change. Round top values that many isolates share are read here as limits; other very high values and 0.1 may be limits too. The protease changes I3V and N37S, insertions and deletions cannot be read from the source.
